Laboratory results published in publication PMC10879537 (Nature Communications, 2024).
Values joined by “and” are separate entries in the source; they are usually repeats but may differ in a detail not shown here. Identical values can stand only once. Like-named read-outs stand apart in the source and are kept apart here.

Assays:
Caco 2-N cells = details: replicate values
Vero E6 cells = details: replicate values
[1] = Log (contentration μM) 0.193125
[2] = Log (contentration μM) -0.107905
[3] = Log (contentration μM) -0.408935

## isotetrandrine
Caco 2-N cells; [1]
  Cytoxicity (%): 9.73% and 0.03%
Caco 2-N cells; Log (contentration μM) 0.49485
  Cytoxicity (%): 5.9% and -3.83%
Caco 2-N cells; Log (contentration μM) 0.79588
  Cytoxicity (%): 8.57% and -4.22%
Caco 2-N cells; Log (contentration μM) 1.09691
  Cytoxicity (%): 3.59% and -4.42%
Caco 2-N cells; Log (contentration μM) 1.39794
  Cytoxicity (%): 8.55% and -4.22%
Caco 2-N cells; Log (contentration μM) 1.69897
  Cytoxicity (%): 15.37% and 1.74%
Caco 2-N cells; [2]
  Cytoxicity (%): 8.61% and 2.25%
Caco 2-N cells; [3]
  Cytoxicity (%): 8.26% and 4.72%
Vero E6 cells; [1]
  Cytoxicity (%): 5.3% and -4.32%
Vero E6 cells; Log (contentration μM) 0.49485
  Cytoxicity (%): 5.41% and -2.27%
Vero E6 cells; Log (contentration μM) 0.79588
  Cytoxicity (%): -1.84% and -9.69%
Vero E6 cells; Log (contentration μM) 1.09691
  Cytoxicity (%): 6.11% and -1.78%
Vero E6 cells; Log (contentration μM) 1.39794
  Cytoxicity (%): 1.6% and -1.17%
Vero E6 cells; Log (contentration μM) 1.69897
  Cytoxicity (%): 15.84% and 8.68%
Vero E6 cells; [2]
  Cytoxicity (%): 13.17% and 0.14%
Vero E6 cells; [3]
  Cytoxicity (%): 6.75% and -0.38%
SARS-CoV-2 trVLP
  SI (SARS-CoV-2 trVLP, Caco 2-N): > 17.73
